# Paper PMC4239114
# Amino acid sequences for entries named in this document (tags omitted). A change or cut given only in a name is not applied to a line headed by its entry.
# UniProt B7UI22: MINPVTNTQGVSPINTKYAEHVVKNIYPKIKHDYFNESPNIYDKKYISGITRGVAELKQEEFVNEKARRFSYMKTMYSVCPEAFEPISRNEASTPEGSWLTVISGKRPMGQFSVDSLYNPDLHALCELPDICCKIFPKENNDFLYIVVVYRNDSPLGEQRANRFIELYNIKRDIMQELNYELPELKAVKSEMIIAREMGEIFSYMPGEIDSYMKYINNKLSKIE
# Target: NleE (Escherichia coli, UniProt B7UI22)
# Assay: 3H-SAM labelling of GST-NZF proteins; native-PAGE methylation assay
# Conditions: labelled compound; methyl acceptors TAB2-NZF, TAB3-NZF, ZRANB3-NZF and Vps36-NZF; native-PAGE assay with 0.8 mM SAM, pH 7.5, 37 C
structure (smiles),measurement,value
C[S+](CC[C@H](N)C(=O)O)C[C@H]1O[C@@H](n2cnc3c(N)ncnc32)[C@H](O)[C@@H]1O (stereo partly shown),3H-SAM labelling of GST-NZF proteins; native-PAGE methylation assay,^3H-SAM labeling assay of NleE methylation of different GST-NZFs
